# pIC50: −log10 of the molar value.
# Molecular target: T1, HIV-1 RT-associated RNase H (Human immunodeficiency virus type 1 group M subtype B, UniProt P03366)
# T1 construct: Human immunodeficiency virus type 1 heterodimeric RT was expressed and purified; made in house
# Assay: HIV-1 RT-associated RNase H assay (fluorescent RNA/DNA hybrid)
# Format: biochemical
# Method: Human immunodeficiency virus type 1 heterodimeric RT was expressed and purified as previously described ([Esposito et al., 2011]; [Meleddu et al., 2014]). The HIV-1 RT-associated RNase H activity was measured as described ([Corona et al., 2014a]; [Meleddu et al., 2015]). Briefly, 20 ng of HIV-1 RT was incubated in 100 μL reaction volume containing 50 mM Tris-HCl (pH 7.8), 6 mM MgCl2, 1 mM DTT, 80 mM KCl, hybrid RNA/DNA (5′-[…]-3′-Fluorescein, 5′-[…]-3′-Dabcyl) and 2 nM RT. The reaction mixture was incubated for 1 h at 37°C; the reaction was stopped by addition of EDTA and products were measured with a Victor 3 (Perkin Elmer model 1420-051) equipped with filters for 490/528 nm (excitation/emission wavelength).
compound,measurement,value
"Cc1nnc(C(=O)NC(C)(C)c2nc(C(=O)NCc3ccc(F)cc3)c(O)c(=O)n2C)o1 [RAL, raltegravir, reference compound]",pIC50,< 4.30

# — article PMC5357622, “Chelation Motifs Affecting Metal-dependent Viral Enzymes: N′-acylhydrazone Ligands as Dual Target Inhibitors of HIV-1 Integrase and Reverse Transcriptase Ribonuclease H Domain” (Frontiers in Microbiology, 2017)
